{"source": "PubChem BioAssay AID1259414 (Drosophila RNAi Screening Center, 2018)", "assay": "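Fly genes that alter Wolbachia amount inside host cells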 (primary screen)", "system": "Drosophila JW18 cells infected with Wolbachia", "reagents": "long dsRNA against Drosophila genes, 0.25 µg dsRNA per well of a 384-well plate", "duration": "5 days", "challenge": "cells persistently infected with Wolbachia before knock-down; no added drug", "read-out": "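Imaged fluorescence in situ signal for Wolbachia 23S rRNA per DAPI-counted host cell, given as a robust z-score within each plate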", "direction": "Wolbachia per cell robust z: higher = more Wolbachia per host cell than the plate typical", "hit rule": "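Hit when robust z is 1.5 or more, or -1.5 or less, in at least two of three replicates; excludes dsRNAs with several or no targets, genes not expressed in JW18 and well A1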", "note": "The screen tested about 24,000 reagents; below is an unselected part of those that have a named target and a result. Of all reagents, about 1,210 (5%) were called active. 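Inactive calls also include excluded dsRNAs with several or no targets, genes unexpressed in JW18, and well A1, regardless of score.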 A number with no mark means an inactive call. The numbers tell different reagents against one gene apart. A plus sign joins genes that one reagent is predicted to hit. Reagent sequences are not shown."}
{"gene knocked down":"Ide (Insulin degrading metalloproteinase)","reagent":1,"Wolbachia per cell robust z, rep 1":"-2.48 (active)","Wolbachia per cell robust z, rep 2":-0.341,"Wolbachia per cell robust z, rep 3":-1.59}
{"gene knocked down":"CG32106","reagent":1,"Wolbachia per cell robust z, rep 1":-0.293,"Wolbachia per cell robust z, rep 2":0.00862,"Wolbachia per cell robust z, rep 3":-0.167}
{"gene knocked down":"veli","reagent":1,"Wolbachia per cell robust z, rep 1":-2.52,"Wolbachia per cell robust z, rep 2":-0.0218,"Wolbachia per cell robust z, rep 3":0.213}
{"gene knocked down":"veli","reagent":2,"Wolbachia per cell robust z, rep 1":-0.988,"Wolbachia per cell robust z, rep 2":-0.729,"Wolbachia per cell robust z, rep 3":-0.88}
{"gene knocked down":"CG7548","reagent":1,"Wolbachia per cell robust z, rep 1":1.57,"Wolbachia per cell robust z, rep 2":0.689,"Wolbachia per cell robust z, rep 3":1.69}
{"gene knocked down":"CG7548","reagent":2,"Wolbachia per cell robust z, rep 1":-0.149,"Wolbachia per cell robust z, rep 2":-0.236,"Wolbachia per cell robust z, rep 3":-0.348}
{"gene knocked down":"Rrp40 (Ribosomal RNA processing 40)","reagent":1,"Wolbachia per cell robust z, rep 1":-0.000823,"Wolbachia per cell robust z, rep 2":0.664,"Wolbachia per cell robust z, rep 3":0.477}
{"gene knocked down":"Cpr47Ec (Cuticular protein 47Ec)","reagent":1,"Wolbachia per cell robust z, rep 1":-1.41,"Wolbachia per cell robust z, rep 2":-0.00262,"Wolbachia per cell robust z, rep 3":-2.29}
{"gene knocked down":"CG33493","reagent":1,"Wolbachia per cell robust z, rep 1":0.163,"Wolbachia per cell robust z, rep 2":-1.3,"Wolbachia per cell robust z, rep 3":-0.159}
{"gene knocked down":"CG33493","reagent":2,"Wolbachia per cell robust z, rep 1":0.764,"Wolbachia per cell robust z, rep 2":1.16,"Wolbachia per cell robust z, rep 3":0.972}
{"gene knocked down":"Pgant6 (Polypeptide N-Acetylgalactosaminyltransferase 6)","reagent":1,"Wolbachia per cell robust z, rep 1":-1.52,"Wolbachia per cell robust z, rep 2":-1.23,"Wolbachia per cell robust z, rep 3":-0.768}
{"gene knocked down":"Pgant6 (Polypeptide N-Acetylgalactosaminyltransferase 6)","reagent":2,"Wolbachia per cell robust z, rep 1":-6.2,"Wolbachia per cell robust z, rep 2":-0.185,"Wolbachia per cell robust z, rep 3":0.0706}
{"gene knocked down":"Eaat2 (Excitatory amino acid transporter 2)","reagent":1,"Wolbachia per cell robust z, rep 1":-0.353,"Wolbachia per cell robust z, rep 2":0.358,"Wolbachia per cell robust z, rep 3":0.196}
{"gene knocked down":"Eaat2 (Excitatory amino acid transporter 2)","reagent":2,"Wolbachia per cell robust z, rep 1":0.144,"Wolbachia per cell robust z, rep 2":1.05,"Wolbachia per cell robust z, rep 3":0.12}
{"gene knocked down":"Eaat2 (Excitatory amino acid transporter 2)","reagent":3,"Wolbachia per cell robust z, rep 1":0.31,"Wolbachia per cell robust z, rep 2":-1.14,"Wolbachia per cell robust z, rep 3":0.0431}
{"gene knocked down":"Gem4c + Gem4b","reagent":1,"Wolbachia per cell robust z, rep 1":0.287,"Wolbachia per cell robust z, rep 2":1.27,"Wolbachia per cell robust z, rep 3":0.0301}
{"gene knocked down":"CG42346","reagent":1,"Wolbachia per cell robust z, rep 1":1.38,"Wolbachia per cell robust z, rep 2":-0.105,"Wolbachia per cell robust z, rep 3":-0.683}
{"gene knocked down":"CG42346","reagent":2,"Wolbachia per cell robust z, rep 1":1.28,"Wolbachia per cell robust z, rep 2":1.99,"Wolbachia per cell robust z, rep 3":0.239}
{"gene knocked down":"Gr22f (Gustatory receptor 22f)","reagent":1,"Wolbachia per cell robust z, rep 1":-0.171,"Wolbachia per cell robust z, rep 2":0.0475,"Wolbachia per cell robust z, rep 3":0.624}
{"gene knocked down":"Gr22f (Gustatory receptor 22f)","reagent":2,"Wolbachia per cell robust z, rep 1":0.402,"Wolbachia per cell robust z, rep 2":-3.61,"Wolbachia per cell robust z, rep 3":0.255}
{"gene knocked down":"escl","reagent":1,"Wolbachia per cell robust z, rep 1":-0.693,"Wolbachia per cell robust z, rep 2":-0.058,"Wolbachia per cell robust z, rep 3":-0.302}
{"gene knocked down":"escl","reagent":2,"Wolbachia per cell robust z, rep 1":-1.15,"Wolbachia per cell robust z, rep 2":-1.05,"Wolbachia per cell robust z, rep 3":-0.541}
{"gene knocked down":"Awh (Arrowhead)","reagent":1,"Wolbachia per cell robust z, rep 1":0.602,"Wolbachia per cell robust z, rep 2":-0.0965,"Wolbachia per cell robust z, rep 3":0.706}
{"gene knocked down":"MtnA (Metallothionein A)","reagent":1,"Wolbachia per cell robust z, rep 1":-1.54,"Wolbachia per cell robust z, rep 2":-1.13,"Wolbachia per cell robust z, rep 3":-0.892}
